Results of unrelated studies side by side (data: NIAID ChemDB).

Shared fields: growth or infection tests; agent: HIV-1; read-out: fold resistance

Rows are shuffled and stem from different studies. Blank or dashed fields: not listed here. Fold resistance has wild type as its base.

smiles	mutations	cell line	read by	strain	result
CCN1c2ncc(CCOc3ccc(S(=O)(=O)NCC(=O)O)c4ccccc34)cc2C(=O)N(C)c2cccnc21	RT-K103N Y181C	C8166	p24	-	1
C#CCOc1cc(NC(=S)OC(C)C)ccc1Cl	RT-L100I	CEM	syncytia	-	50
Cc1ccc(C)c(C(C)S(=O)(=O)c2c(C)ccc[n+]2[O-])c1	RT-K103N	CEM	cytopathic effect	-	120
Cc1ccnc(SC(F)(F)c2nc3ccccc3o2)n1	RT-L74V	-	-	ddI-resistant (RT L74V)	2.37
CCOCn1c(Sc2cc(C)cc(C)c2)c(CC)c(=O)[nH]c1=O	RT-Y188H	CEM	syncytia	IIIB	2225
FC(F)(Sc1ncccn1)c1nc2ccccc2o1	RT-D67N K70R T215Y K219Q	-	-	4xAZT(RT-D67N K70R T215Y K219Q)	0.111
CCN1c2ncc(CCOc3ccc(C(=O)O)c4c3CCCC4)cc2C(=O)N(C)c2ccc(F)nc21	RT-K103N Y181C	C8166	p24	-	1
CCc1c(C)[nH]c(=O)c(I)c1Oc1cc(C)cc(C)c1	RT-Y188L	MT-4	cytopathic effect / MTT	-	40
CCc1c(Sc2ccccc2)n(COCc2ccccc2)c(=S)[nH]c1=O	RT-Y181I	CEM	syncytia	IIIB	260
CCN1C(=O)c2c(O)c(=O)c(C(=O)NCc3c(F)cc(F)cc3F)cn2[C@H]2COC[C@H]21	G140S/Q148R	MT-2	luminescence	-	5.9
CCc1c(Cc2cc(C)cc(C)c2)n(COCCO)c(=O)[nH]c1=O	RT-L100I	CEM	syncytia	IIIB (TIBO 82150) (RT-L100I)	6.07
Cc1cc(S(N)(=O)=O)ccc1NC(=O)COc1ccc(Cl)cc1C(=O)c1cc(F)cc(C(F)(F)F)c1	RT-K103N V108I	HeLa + HELA CD4+	β-galactosidase	HXB2	~1
CCc1c(C)[nH]c(=O)c(Cl)c1Oc1cc(C)cc(C)c1	RT-Y188L	MT-4	cytopathic effect / MTT	-	16
c1ccc(CN2CCc3cncn3CC2)cc1	RT-Y181C	CEM + CEM-SS	RT activity	Nevirapine-resistant	1.4
Cc1cc(S(N)(=O)=O)ccc1NC(=O)COc1ccc(Cl)cc1C(=O)c1cc(F)cc(C#N)c1	RT-V106I	HeLa + HELA CD4+	β-galactosidase	HXB2	~1
CC(C)=CCOc1cc(NC(=S)c2ccsc2C)ccc1Cl	RT-V108I	CEM + CEM-SS	p24	NL4-3	1
CCN1c2ncc(CCOc3ccc(CCC(=O)O)c4ccccc34)cc2C(=O)N(C)c2ccc(F)nc21	RT-K103N Y181C	C8166	p24	-	1
Cc1cc2[nH]cnc2cc1NC(=O)COc1ccc(Cl)cc1C(=O)c1cc(F)cc(C(F)(F)F)c1	RT-P236L	HeLa + HELA CD4+	β-galactosidase	HXB2	~1
CC(C)=CCOc1cc(NC(=S)c2ccoc2C)ccc1Cl	RT-Y188H	CEM + CEM-SS	cytopathic effect / XTT	Costatolide-resistant (RT Y188H)	10
C=Cc1c(Oc2cc(C)cc(C)c2)c(CC)c(C)[nH]c1=O	RT-K103N	MT-4	cytopathic effect / MTT	-	1
COc1ccnc2[nH]cc(C(=O)C(=O)N3CCN(C(=O)c4ccccc4)C[C@H]3C)c12	GP120/GP41-M434I I595F	MT-2	RT activity	LAI (gp120/gp41 M434I I595F) Recombinant	497.5
CCCOC(=O)c1cc(NC(=S)OC(C)C)ccc1Cl	RT-V106A	CEM	syncytia	-	80.2
CC(C)=CCN1Cc2cc(Cl)cc3[nH]c(=O)n(c23)C[C@@H]1C	RT-L100I	MT-4	cytopathic effect / XTT	IIIB	>88
CCCCCCCCCCCCCCCC(=O)Nc1ccn([C@H]2CC[C@@H](COP(=O)(O)O[C@H]3C[C@H](n4cc(C)c(=O)[nH]c4=O)O[C@@H]3CO)O2)c(=O)n1	Calanolide-resistant (RT T139I)	CEM + CEM-SS	cytopathic effect / XTT	Calo-resistant (RT T139I)	3.25
CCCc1c(SCC2CCC2)c2cc(Cl)ccc2[nH]c1=O	RT-Y181C	MT-4	-	Nevirapine-resistant (RT Y181C)	2.97
CCc1c(C)[nH]c(=O)c(Br)c1Oc1cc(C)cc(C)c1	RT-Y188L	MT-4	cytopathic effect / MTT	-	32
O=C1Nc2ccc(F)c(F)c2[C@@](/C=C/C2CC2)(C(F)(F)F)N1	RT-P225H	-	-	-	<6.32
CN(C)C1=C(C#N)/C(=C2/C(C#N)=C(N(C)C)N(c3ccc([N+](=O)[O-])cc3)c3c2n(C)c2ccccc32)c2c(c3ccccc3n2C)N1c1ccc([N+](=O)[O-])cc1	RT-P236L	CEM + CEM-SS	cytopathic effect / XTT	HEPT-resistant (RT P236L)	1.18
CC(C)COC(=O)c1cc(NC(=S)OC(C)C)ccc1Cl	RT-L100I	CEM	syncytia	-	91
CCN1c2ncc(CCOc3ccc(CC(C)C(=O)O)c4ccccc34)cc2C(=O)N(C)c2ccc(C)nc21	RT-K103N Y181C	C8166	p24	-	1
CC1=C(C(=O)Nc2ccc(Cl)c(C(=O)OC3CCCCC3)c2)SCCO1	RT-L100I	CEM	syncytia	TIBO-resistant (RT L100I)	21.25
CCN1C(=O)c2c(O)c(=O)c(C(=O)NCc3ccc(F)c(Cl)c3F)cn2[C@H]2CCO[C@H]21	G140S/Q148R	MT-2	luminescence	-	1.9
C[C@@H]1CCO[C@H]2Cn3cc(C(=O)NCc4ccc(F)cc4F)c(=O)c(O)c3C(=O)N12	V72I	TZM-bl	luciferase / luminescence	-	1
CC(C)OC(=O)Oc1cc(NC(=S)OC(C)C)ccc1Cl	RT-Y181C	CEM	syncytia	-	15
Nc1ncnc2c1ncn2[C@@H]1O[C@H](OCP(=O)(O)O)C=C1F	RT-M184V	MT-2	cytopathic effect	-	0.8
Cc1cc(S(N)(=O)=O)ccc1NC(=O)COc1ccc(Cl)cc1C(=O)c1cccc(C#N)n1	RT-K103N G190A	HeLa + HELA CD4+	β-galactosidase	HXB2 (RT-K103N G190A) Recombinant	~1
CC(C)OC(=S)Nc1ccc(Cl)c(C(=O)OC(C)(C)C)c1	RT-E138K	CEM	syncytia	-	35.1
CCCc1c(OC2CCCC2)c2cc(Br)ccc2[nH]c1=O	RT-Y181C	MT-4	-	Nevirapine-resistant (RT Y181C)	17.9
O=C1Nc2ccc(F)c(F)c2[C@@](C#CC2CC2)(C(F)(F)F)N1	RT-Y188L	-	-	-	83.3
CCCc1c(OCC2CCC2)c2cc(F)ccc2[nH]c1=O	RT-Y181C	MT-4	-	Nevirapine-resistant (RT Y181C)	3.34
COC(=S)Nc1ccc(Cl)c(C(=O)OC(C)C)c1	RT-E138K	CEM	syncytia	-	>5.27
CCN1C(=O)c2c(O)c(=O)c(C(=O)NCc3ccc(F)cc3F)cn2[C@H]2CCOC[C@H]21	E92Q/N155H	MT-2	luminescence	-	2.1
C=CCOC(=O)c1cc(NC(=S)OC(C)C)ccc1Cl	RT-Y181C	CEM	syncytia	-	21.3
CCc1c(Sc2cc(C)cc(C)c2)n(COCCO)c(=S)[nH]c1=O	RT-E138K	CEM	syncytia	IIIB	10
O=C(NCc1c(F)cc(F)cc1F)c1cn2c(c(O)c1=O)C(=O)N1[C@H]3CC[C@H](C3)O[C@@H]1C2	T97A E138K G140S Q148H	CEM-GXR	GFP	NL4-3	8.2
Cc1occc1C(=S)Nc1ccc(Cl)c(/C=N/OC(C)(C)C)c1	RT-L74V	CEM + CEM-SS	cytopathic effect / XTT	NL4-3	0.875
Cc1ccc(C(C)S(=O)(=O)c2c(C)ccc[n+]2[O-])c(C)c1	RT-K103N	CEM	cytopathic effect	-	14.7
CO/N=C(\C)COc1cc(NC(=S)OC(C)C)ccc1Cl	RT-Y181C	CEM	syncytia	-	57
CCCc1c(Cc2cc(C)cc(C)c2)n(COCC2CC=CCC2)c(=O)[nH]c1=O	RT-Y181C	MT-4	cytopathic effect / MTT	NNRTI-resistant (RT Y181C) N119	>1250
CCOC(=O)c1cc(NC(=S)OC(C)C)ccc1C	RT-L100I	CEM	syncytia	-	2260
Cc1cc(C)c(CS(=O)c2cccc[n+]2[O-])c(C)c1	RT-Y181C	CEM	cytopathic effect	-	4.16
CC(C)c1c(Sc2ccccc2)n(COCCO)c(=O)[nH]c1=O	RT-Y181I	CEM	syncytia	IIIB	>357
O=C(O[C@@H]1[C@H](OC(=O)c2ccccc2)[C@@H](CO)O[C@H]1n1cnc2c(N(C(=O)c3ccccc3)C(=O)c3ccccc3)ncnc21)c1ccccc1	M41L-L210W-T215Y	HeLaP4	β-galactosidase	NL4-3	0.38
Cc1ccc(C2CC2)c(-c2ccc3c(c2C)CCCO3)c1[C@H](OC(C)(C)C)C(=O)O	INSTI-resistant (IN-E92Q)	MT-4	luminescence	NL4-3	1
CCCc1c(SC2CCCC2)c2cc(F)ccc2[nH]c1=O	RT-Y181C	MT-4	-	Nevirapine-resistant (RT Y181C)	5.84
C#CCOC(=O)c1cc(NC(=S)OC(C)C)ccc1Cl	RT-L100I	CEM	syncytia	-	20.7
Nc1nc2c(ncn2[C@H]2CO[C@@H](CO)O2)c(=O)[nH]1	RT-K65R	MT-2	cytopathic effect / XTT	-	~1.67
CCC(C)OC(=S)Nc1ccc(Cl)c(C(=O)OC(C)(C)C)c1	RT-Y181C	CEM	syncytia	-	16.7
CCc1c(C)[nH]c(=O)c(SCCC(N)=O)c1Oc1cc(C)cc(C)c1	RT-L100I	MT-4	cytopathic effect / MTT	-	13
CC(C)=CCOc1cc(NC(=S)c2ccsc2C)ccc1Cl	RT-K101E	CEM + CEM-SS	cytopathic effect / XTT	NL4-3 (RT K101E)	1
Cc1ccc(C)c(CS(=O)c2ccc(Cl)c[n+]2[O-])c1	RT-K103N	CEM	cytopathic effect	-	4.5
CC(C)OC(=S)Nc1ccc(Cl)c(COC(C)(C)C)c1	RT-L100I	CEM	syncytia	-	>2.22
CCCc1c(OCC2CCCCC2)c2cc(Cl)ccc2[nH]c1=O	RT-Y181C	MT-4	-	Nevirapine-resistant (RT Y181C)	0.626

A second listing of 7 rows from above:

smiles,mutations,cell line,read by,strain,result
Cc1ccnc(SC(F)(F)c2nc3ccccc3o2)n1,RT-L74V,-,-,ddI-resistant (RT L74V),2.37
C#CCOC(=O)c1cc(NC(=S)OC(C)C)ccc1Cl,RT-L100I,CEM,syncytia,-,20.7
COC(=S)Nc1ccc(Cl)c(C(=O)OC(C)C)c1,RT-E138K,CEM,syncytia,-,>5.27
CC(C)=CCOc1cc(NC(=S)c2ccsc2C)ccc1Cl,RT-V108I,CEM + CEM-SS,p24,NL4-3,1
O=C(NCc1c(F)cc(F)cc1F)c1cn2c(c(O)c1=O)C(=O)N1[C@H]3CC[C@H](C3)O[C@@H]1C2,T97A E138K G140S Q148H,CEM-GXR,GFP,NL4-3,8.2
C#CCOc1cc(NC(=S)OC(C)C)ccc1Cl,RT-L100I,CEM,syncytia,-,50
CCCc1c(Cc2cc(C)cc(C)c2)n(COCC2CC=CCC2)c(=O)[nH]c1=O,RT-Y181C,MT-4,cytopathic effect / MTT,NNRTI-resistant (RT Y181C) N119,>1250